Compound potency records, mixed from different reports. Data source: NIAID ChemDB in PubChem.

All rows: whole-cell or culture tests; organism: HIV-1

Blank or dashed fields: not listed here. ECn is the concentration giving n% inhibition of infection, replication or growth. Rows are shuffled and stem from different studies.

smiles | strain | setting | endpoint | cells | read by | mutations | result
CCCC1(CCC)CC(O)=C(C(CC)c2cccc(NS(=O)(=O)c3ccc(C#N)cc3)c2)C(=O)O1 | IIIB | - | EC50 | H9 | - | - | 1.9 µM
Nc1nccc2c1ncn2[C@@H]1C=C(CO)[C@@H](O)[C@H]1O | IIIB | - | EC50 | MT-4 | cytopathic effect / trypan blue | - | >0.025 µg/mL
Cc1c(-c2ccc(-c3ccccc3F)cc2)nc2ccc(F)cc2c1C(=O)O | LAI | - | EC50 | TZM-bl | luciferase | - | 40 µM
Cc1cn([C@H]2C[C@H](N=[N+]=[N-])[C@@H](CO)O2)c(=O)[nH]c1=O | RES056 | - | EC50 | MT-4 | MTT | - | >0.006 µM
Nc1nc(N)c2ncn([C@H]3C=C[C@@H](CO)C3)c2n1 | IIIB | - | EC50 | MT-4 | cytopathic effect / propidium iodide | - | 10 µM
Cc1cc(S(=O)(=O)Nc2nc(Nc3ccc(Cl)cc3)nn2C)c(S)cc1Cl | RF | - | EC50 | CEM | cytopathic effect / XTT | - | >67.6 µM
CN(C)C=C1c2nnc(-c3ccccc3)n2-c2ccccc2-n2c1nnc2-c1ccccc1 | IIIB | - | EC50 | MT-4 | cytopathic effect / MTT | - | >133 µM
O=c1[nH]c(=S)[nH]c2c1C(c1ccc(Cl)cc1)c1c([nH]c(=S)[nH]c1=O)O2 | L1 | - | EC50 | MT-4 | cytopathic effect | - | 101 µM
Cc1cc(S(=O)(=O)Nc2n[nH]c(N)n2)c(SCC(=O)O)cc1Cl | RF | - | EC50 | CEM | cytopathic effect / XTT | - | >200 µM
Nc1ccn([C@H]2CC[C@@H](CO)O2)c(=O)n1 | Isolate 2441 | - | EC50 | PBMC | p24 | - | 0.08 µM
Cc1cn([C@H]2C[C@H](N=[N+]=[N-])[C@@H](CO)O2)c(=O)[nH]c1=O | MOKW | - | EC50 | PBMC | p24 | - | 0.001 µM
CCCC1(CCc2ccccc2)CC(O)=C(C(c2cccc(NS(=O)(=O)c3ccc(N)cn3)c2)C(C)(C)C)C(=O)O1 | IIIB | - | EC90 | H9 | - | - | 0.9 µM
Cc1cn([C@H]2C[C@H](N=[N+]=[N-])[C@@H](CO)O2)c(=O)[nH]c1=O | A018A Clinical isolate | - | EC50 | HT4 + HT4-6C | plaque count | - | 0.01 µM
Cc1nnc2n1-c1ccccc1-n1c(C)nnc1C2 | IIIB | - | EC50 | MT-4 | cytopathic effect / MTT | - | >200 µM
CCCCCCCSc1nsc(NC(=O)Nc2ccccc2)n1 | NL4-3 | - | EC50 | MT-4 | cytopathic effect | RT A62V 69SS K70R E79K V118I M184V E203K L210W T215Y | 15.1 µM
CCCC1(CCC)CC(O)=C(C(CC)c2cccc(NS(=O)(=O)c3cccc4cccnc34)c2)C(=O)O1 | IIIB | - | EC50 | H9 | - | - | 2.1 µM
Cc1cc(Br)cc(C)c1Oc1ncc([N+](=O)[O-])c(Nc2ccc(C#N)cc2)n1 | IIIB | - | EC50 | MT-4 | MTT | - | 0.0636 µM
Nc1nc(NC2CC2)c2ncn([C@H]3C=C[C@@H](CO)C3)c2n1 | IIIB | - | EC50 | PBL | RT activity | - | 3.7 µM
Cc1ccnc2c1NC(=O)c1cccnc1N2C1CC1 | L1 | - | EC50 | MT-4 | cytopathic effect | - | 0.1 µM
O=C(NCc1ccc(F)cc1)c1nc[nH]c(=O)c1O | IIIB | 50% human serum | EC95 | MT-4 | p24 / ELISA | - | >10 µM
Cc1cc(S(=O)(=O)Nc2nnc3ccc4ccccc4n23)c(S)cc1Cl | RF | - | EC50 | CEM | cytopathic effect / XTT | - | >30.8 µM
Cc1cc(C)c(Nc2nc(NC3CCN(Cc4cccc(C#N)c4)CC3)nc3nc[nH]c23)c(C)c1 | IIIB | - | EC50 | MT-4 | MTT | - | >25.4 µM
CN1CCC(=C2c3ccccc3C=Cc3ccccc32)CC1 | LAV | - | EC50 | MT-4 | - | - | >10 µg/mL
Cc1cc(C)c(Nc2nc(NC3CCN(Cc4ccc(C(N)=O)cc4)CC3)nc3nc[nH]c23)c(C)c1 | RES056 | - | EC50 | MT-4 | MTT | - | >23.85 µM
O=c1[nH]cnc2c1ncn2[C@H]1CC[C@@H](CO)O1 | IIIB | - | EC50 | PBL | RT activity | - | 16 µM
Cc1cc(S(=O)(=O)Nc2nnc3c(C(F)(F)F)cc(Cl)cn23)c(S)cc1Cl | RF | - | EC50 | CEM | cytopathic effect / XTT | - | 58.1 µM
CCO/N=C(\c1ccc(Br)cc1)C1CCN(C2(C)CCN(C(=O)c3c(C)cc[n+]([O-])c3C)CC2)CC1 | R5-06(PR-V77I R5 clinical isolate | - | EC50 | PBMC | p24 | PR-V77I | 0.0021 µM
Nc1nc(=O)n([C@@H]2CS[C@H](CO)O2)cc1F | Clinical isolate | - | EC50 | PBMC | single cycle / fluorescence | A114S | 0.02718 µM
CCCCCCCCCCCCCC(=O)OC[C@@H](COP(=O)(O)OC[C@@H]1CC[C@H](n2cc(C)c(=O)[nH]c2=O)O1)OC(=O)CCCCCCCCCCCCC | BRU | - | EC50 | CEM/TK- | p24 | - | >100 µM
CC1(C)S[C@@H]2[C@H](NC(=O)Cc3ccccc3)C(=O)N2[C@H]1C(=O)NCCNC(=O)[C@@H]1N2C(=O)[C@@H](NC(=O)Cc3ccccc3)[C@H]2SC1(C)C | RF | - | EC50 | MT-4 | syncytia | - | >100 µM
c1ccc(Cc2nnc3n2-c2ccccc2-n2c(Cc4ccccc4)nnc2C3)cc1 | IIIB | - | EC50 | MT-4 | cytopathic effect / MTT | - | >58 µM
Cc1cc(C=O)cc(C)c1Oc1ncc(NC(=O)C(F)(F)F)c(Nc2ccc(C#N)cc2)n1 | RES056 | - | EC50 | MT-4 | MTT | - | 35.46 µM
CC(=O)S[C@@H]1CC2=CC(=O)CC[C@]2(C)[C@H]2CC[C@H]3[C@@H](CC[C@@]34CCC(=O)O4)[C@H]12 | LAV | - | EC50 | MT-4 | - | - | >100 µg/mL
Cc1cc(S(=O)(=O)Nc2n[nH]c(N)n2)c(S)cc1Cl | RF | - | EC50 | CEM | cytopathic effect / XTT | - | >200 µM
CCc1cc(CCc2nc3ccccc3o2)c(=O)[nH]c1C | IIIB-R (RT-Y181C) | - | EC50 | MT-4 | cytopathic effect / MTT | RT-Y181C | >188 µM
CO[P@](=O)(c1cc(C)cc(/C=C/C#N)c1)c1c(C(N)=O)[nH]c2ccc(Cl)cc12 | NL4-3 | - | EC50 | MT-4 | ELISA | K103N/Y181C | 0.0065 µM
CCCN(C)C(=O)Oc1nsnc1-c1c(Cl)ccc(N)c1Cl | clinical isolate A012B AZT-sensitive | - | EC50 | MT-4 | p24 | - | 0.0038 µM
Cc1cn([C@H]2C[C@H](N=[N+]=[N-])[C@@H](CO)O2)c(=O)[nH]c1=O | IIIB | - | EC50 | MT-4 | cytopathic effect / MTT | - | 0.0033 µM
CCNC(=O)[C@@H](NC(=O)Cc1ccccc1)[C@@H]1N[C@@H](C(=O)NCCNC(=O)[C@@H]2N[C@@H]([C@H](NC(=O)Cc3ccccc3)C(=O)NCC)SC2(C)C)C(C)(C)S1 | RF | - | EC50 | MT-4 | p24 | - | 0.3 µM
Nc1nc(=O)n([C@@H]2CS[C@H](CO)O2)cc1F | LAV-1 | - | EC50 | CEM | cytopathic effect | - | 0.009 µM
O=C(Cn1c(=O)sc2ccc(Cl)cc21)N1CCN(CCO)CC1 | LAV | - | EC50 | MT-4 | - | - | >100 µg/mL
CCC(C1=C(O)CC(CCc2ccccc2)(CCc2ccccc2)OC1=O)c1cccc(NS(=O)(=O)c2ccc(C#N)cn2)c1 | IIIB | - | EC50 | H9 | - | - | 0.19 µM
O=c1[nH]cnc2c1ncn2[C@H]1CC[C@@H](CO)O1 | 689 | - | EC50 | PBMC | ELISA | - | 3.5 µM
Cc1cc(C#N)cc(C)c1Oc1ncc([N+](=O)[O-])c(Nc2ccc(C#N)cc2)n1 | RES056 | - | EC50 | MT-4 | MTT | - | ≥274 µM
Cc1cn([C@H]2C[C@H](N=[N+]=[N-])[C@@H](CO)O2)c(=O)[nH]c1=O | LAV-1 | 14 d | EC50 | CEM | cytopathic effect | - | 0.1 µM
CCCC[NH+]1[C@@H]2C[C@H](OC(=O)[C@H](CO)c3ccccc3)CC[C@H]1[C@H]1O[C@H]12 | LAV | - | EC50 | MT-4 | - | - | >100 µg/mL
Cc1cc(C)c(Nc2nc(NC3CCN(Cc4ccccn4)CC3)nc3nc[nH]c23)c(C)c1 | IIIB | - | EC50 | MT-4 | MTT | - | 26.87 µM
Nc1nccc2c1ncn2[C@@H]1C=C[C@@H](O)[C@H]1O | IIIB | - | EC50 | MT-4 | cytopathic effect / trypan blue | - | >3.3 µg/mL
CCCC1(CCc2ccc(F)cc2)CC(O)=C(C(CC)c2cccc(NS(=O)(=O)c3ccc(C#N)cn3)c2)C(=O)O1 | IIIB | - | EC50 | H9 | - | - | 0.2 µM
COc1nc(=O)[nH]c2c1C(c1ccc([N+](=O)[O-])cc1)c1c(OC)nc(=O)[nH]c1O2 | L1 | - | EC50 | MT-4 | cytopathic effect | - | >313 µM
COc1ccc(Nc2nc(NS(=O)(=O)c3cc(C)c(Cl)cc3S)n[nH]2)cc1 | RF | - | EC50 | CEM | cytopathic effect / XTT | - | 169 µM
c1ccc(-c2nnc3n2-c2ccccc2-n2c(nnc2-c2ccccc2)C3)cc1 | IIIB | - | EC50 | MT-4 | cytopathic effect / MTT | - | >12 µM
N#Cc1ccc(S(=O)(=O)Nc2cccc(C(c3c(O)c4c(oc3=O)CCCCCC4)C3CC3)c2)cc1 | IIIB | - | EC50 | H9 | - | - | 1.5 µM
Cc1cn([C@H]2C[C@H](N=[N+]=[N-])[C@@H](CO)O2)c(=O)[nH]c1=O | NL4-3 | - | EC50 | MT-4 | cytopathic effect | RT A62V 69SS K70R E79K V118I M184V E203K L210W T215Y | >7.5 µM
CCCCOc1nc(N)nc2c1ncn2[C@H]1C=C[C@@H](CO)C1 | IIIB | - | EC50 | MT-4 | cytopathic effect / propidium iodide | - | 6.6 µM
Cc1cc(S(=O)(=O)Nc2n[nH]c(Nc3ccc4ccccc4c3)n2)c(S)cc1Cl | RF | - | EC50 | CEM | cytopathic effect / XTT | - | >200 µM
CCCC1(CCC)CC(O)=C(C(CC)c2cccc(NS(=O)(=O)c3ccc(C(F)(F)F)cn3)c2)C(=O)O1 | IIIB | - | EC90 | H9 | - | - | 0.76 µM
CCCCN1C(=O)C(CC2CCCCC2)NC(=O)C12CCN(Cc1ccc3c(c1)OCCO3)CC2 | JSL | - | EC50 | PBMC | p24 | MDR | 0.06 µM
CCc1nnc2n1-c1ccccc1-n1c(CC)nnc1C2C | IIIB | - | EC50 | MT-4 | cytopathic effect / MTT | - | >200 µM
CCCCN1C(=O)C(CC(C)C)NC(=O)C12CCN(CCCCCCc1ccccc1)CC2 | BaL | - | EC50 | PBMC | p24 | - | 0.54 µM
Cc1cc(S(=O)(=O)Nc2nc(N)n(C)n2)c(S)cc1Cl | RF | - | EC50 | CEM | cytopathic effect / XTT | - | >200 µM
CC(C)Nc1nc(N)nc2c1ncn2[C@H]1C=C[C@@H](CO)C1 | IIIB | - | EC50 | MT-4 | cytopathic effect / propidium iodide | - | 52 µM
CC(=O)Nc1cnc(Oc2c(Cl)cc(Cl)cc2Cl)nc1Nc1ccc(C#N)cc1 | RES056 | - | EC50 | MT-4 | MTT | - | >33.16 µM
Fc1ccccc1CCNC(=S)Nc1ccc(Br)cn1 | RT-Y181C K103N A17 variant NNRTI-resistant | - | EC50 | PBMC | p24 | - | 35 µM
Cc1c(O)cccc1C(=O)N[C@@H](CSc1ccccc1)[C@H](O)CN1C[C@H]2CCCC[C@H]2C[C@H]1C(=O)NC(C)(C)C | MOKW | - | EC50 | PBMC | p24 | - | 0.014 µM
Nc1nc2c(ncn2[C@H]2C=C[C@@H](CO)C2)c(=O)[nH]1 | IIIB | - | EC50 | MT-4 | cytopathic effect / propidium iodide | - | 4.6 µM
CN(C)S(=O)(=O)N(C)C1CCn2c1nc(C(=O)NCc1ccc(F)cc1)c(O)c2=O | IIIB | 50% human serum | EC95 | MT-4 | p24 / ELISA | - | >1 µM
CCC[C@]1(CCc2ccccc2)CC(O)=C([C@@H](CC)c2cccc(NS(=O)(=O)c3ccc(C(F)(F)F)cn3)c2)C(=O)O1 | IIIB | - | EC90 | H9 | - | - | 3 µM
COc1ccc(OC)c(CCNC(=S)Nc2ccc(Br)cn2)c1 | RT-Y181C A17 NNRTI-resistant | - | EC50 | PBMC | p24 | - | 0.14 µM
CCCC1(CCC)CC(O)=C([C@H](CC)c2cccc(NS(=O)(=O)c3ccc(C(F)(F)F)cn3)c2)C(=O)O1 | IIIB | - | EC90 | H9 | - | - | 1 µM
CC(=O)c1ccc(C)cc1NC(C(N)=O)c1c(Cl)cccc1Cl | HE/NEV(RT-Y181C) | - | EC50 | MT-4 | p24 | RT-Y181C | >137 µM

Again, the opening 9 rows:

{"smiles": "CCCC1(CCC)CC(O)=C(C(CC)c2cccc(NS(=O)(=O)c3ccc(C#N)cc3)c2)C(=O)O1", "strain": "IIIB", "endpoint": "EC50", "cells": "H9", "result": "1.9 µM"}
{"smiles": "Nc1nccc2c1ncn2[C@@H]1C=C(CO)[C@@H](O)[C@H]1O", "strain": "IIIB", "endpoint": "EC50", "cells": "MT-4", "read by": "cytopathic effect / trypan blue", "result": ">0.025 µg/mL"}
{"smiles": "Cc1c(-c2ccc(-c3ccccc3F)cc2)nc2ccc(F)cc2c1C(=O)O", "strain": "LAI", "endpoint": "EC50", "cells": "TZM-bl", "read by": "luciferase", "result": "40 µM"}
{"smiles": "Cc1cn([C@H]2C[C@H](N=[N+]=[N-])[C@@H](CO)O2)c(=O)[nH]c1=O", "strain": "RES056", "endpoint": "EC50", "cells": "MT-4", "read by": "MTT", "result": ">0.006 µM"}
{"smiles": "Nc1nc(N)c2ncn([C@H]3C=C[C@@H](CO)C3)c2n1", "strain": "IIIB", "endpoint": "EC50", "cells": "MT-4", "read by": "cytopathic effect / propidium iodide", "result": "10 µM"}
{"smiles": "Cc1cc(S(=O)(=O)Nc2nc(Nc3ccc(Cl)cc3)nn2C)c(S)cc1Cl", "strain": "RF", "endpoint": "EC50", "cells": "CEM", "read by": "cytopathic effect / XTT", "result": ">67.6 µM"}
{"smiles": "CN(C)C=C1c2nnc(-c3ccccc3)n2-c2ccccc2-n2c1nnc2-c1ccccc1", "strain": "IIIB", "endpoint": "EC50", "cells": "MT-4", "read by": "cytopathic effect / MTT", "result": ">133 µM"}
{"smiles": "O=c1[nH]c(=S)[nH]c2c1C(c1ccc(Cl)cc1)c1c([nH]c(=S)[nH]c1=O)O2", "strain": "L1", "endpoint": "EC50", "cells": "MT-4", "read by": "cytopathic effect", "result": "101 µM"}
{"smiles": "Cc1cc(S(=O)(=O)Nc2n[nH]c(N)n2)c(SCC(=O)O)cc1Cl", "strain": "RF", "endpoint": "EC50", "cells": "CEM", "read by": "cytopathic effect / XTT", "result": ">200 µM"}